Data reported in ChEMBL document CHEMBL2401675, “Design, synthesis, and biological evaluation of novel dipeptide-type SARS-CoV 3CL protease inhibitors: structure-activity relationship study” (Eur J Med Chem, 2013).

Biological target: Replicase polyprotein 1a (Severe acute respiratory syndrome-related coronavirus, UniProt P0C6U8)
Assay: Inhibition of SARS coronavirus Chymotrypsin-like protease using H-Thr-Ser-Ala-Val-Leu-Gln-Ser-Gly-Phe-Arg-Lys-NH2 as substrate by fluorescence assay

Compound	IC50 [µM]	Ki [µM]
CC(C)C[C@H](NC(=O)COc1ccccc1)C(=O)N[C@@H](C[C@@H]1CCNC1=O)C(=O)c1nc2ccccc2s1	24	0.56
COc1ccccc1NCC(=O)N[C@@H](CC(C)C)C(=O)N[C@@H](C[C@@H]1CCNC1=O)C(=O)c1nc2ccccc2s1	14	0.33
CC(C)C[C@H](NC(=O)OCc1ccccc1)C(=O)N[C@@H](C[C@@H]1CCNC1=O)C(=O)c1nc2ccccc2s1	21	0.46
